A mixed list of measured activities; the numbers were collected in NIAID ChemDB.

Common to all: target-level tests; organism: Toxoplasma gondii; target: DHFR; endpoint: IC50

ICn is the concentration giving n% inhibition. Lines come from different laboratories, so protocols vary.

smiles	value
Nc1ccc(S(=O)(=O)c2ccc(N)cc2)cc1	0.25 µM
COc1cccc2nc(N)nc(N)c12	0.48 µM
Nc1nc(N)c2nc(CCc3ccccc3)cnc2n1	0.74 µM
CC(C)Cc1nc2nc(N)nc(N)c2nc1CC(C)C	0.028 µM
COc1ccc(OC)c(CCc2cnc3nc(N)nc(N)c3n2)c1	2.8 µM
Nc1nc(N)c2nc(Cc3ccc4ccccc4c3)c(Cc3ccc4ccccc4c3)nc2n1	>31 µM
COc1ccc(OC)c(N(C)Cc2csc3nc(N)nc(N)c23)c1	>10 µM
COc1ccc(N2C(N)=NC(N)=NC2(C)C)c(OC)c1	>90 µM
Nc1nc(N)c2nc(CCc3ccc4ccccc4n3)cnc2n1	0.59 µM
CCCCCc1nc2nc(N)nc(N)c2nc1CCCCC	0.17 µM
Nc1nc(N)c2nc(CCc3ccc(C(F)(F)F)cc3)cnc2n1	1.5 µM
Cc1ccnc(NS(=O)(=O)c2ccc(N)cc2)n1	7.2 µM
Nc1nc(N)c2ccc(Cl)cc2n1	81 µM
Cl.Nc1nc(N)c2nc(CCc3ccncc3)cnc2n1	6.39 µM
Nc1nc(N)c2c(CNc3cc(Cl)c(-n4cccc4)c(Cl)c3)csc2n1	>10 µM
CCCCCCCCCCCC1(C)N=C(N)N=C(N)N1c1ccc(Cl)cc1	0.075 µM
Nc1ccc(S(=O)(=O)c2ccc(N)c(Cl)c2)cc1	0.81 µM
COc1ccc2nc(N)nc(N)c2c1	22 µM
CC(=O)NS(=O)(=O)c1ccc(N)cc1	42 µM